Results from PubChem BioAssay AID485367 (National Center for Advancing Translational Sciences (NCATS), 2010).
Only a part is listed here, and it is no random draw. Some salts and complexes are drawn in separate pieces, as the source files them; their charges need not balance. Active and inactive are the calls of the source. Calls follow the shape of the dose curve; as a rule, active = well fitted inhibition curve with a large enough effect; inconclusive = small, poorly fitted or top-dose-only effect, or effect the other way; inactive = flat fitted curve, though single readings scatter.

Amino acid sequences for entries named in this document (tags omitted).
UniProt O15648, whole entry: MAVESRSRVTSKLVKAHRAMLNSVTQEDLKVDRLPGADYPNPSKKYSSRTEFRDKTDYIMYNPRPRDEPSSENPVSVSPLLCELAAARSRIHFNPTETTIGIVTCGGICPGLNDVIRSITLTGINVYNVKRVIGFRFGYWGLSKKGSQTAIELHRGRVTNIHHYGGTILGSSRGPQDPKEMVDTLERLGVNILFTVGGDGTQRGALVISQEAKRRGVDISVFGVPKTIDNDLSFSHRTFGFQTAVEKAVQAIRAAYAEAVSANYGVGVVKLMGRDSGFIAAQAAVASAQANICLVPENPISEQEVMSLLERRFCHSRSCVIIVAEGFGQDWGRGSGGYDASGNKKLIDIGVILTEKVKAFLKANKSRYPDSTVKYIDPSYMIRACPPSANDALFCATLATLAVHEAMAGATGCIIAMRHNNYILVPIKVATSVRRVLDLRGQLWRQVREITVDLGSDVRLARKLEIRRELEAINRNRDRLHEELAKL

Target: ATP-dependent 6-phosphofructokinase (Trypanosoma brucei brucei) (UniProt O15648)
Assay: qHTS Assay to Find Inhibitors of T. brucei phosphofructokinase; also: nearly all actives have a fitted effect of over 60% in size
Settings: T. brucei PFK, ADP-Glo luminescence; at 57.5 µM (top of the series)
Excerpt: NIH Molecular Libraries Probe Production Network [MLPCN] NIH Chemical Genomics Center [NCGC] Grant: 1 R03 MH092153-01 PI Name: Malcolm Walkinshaw, University of Edinburgh NCGC Assay Overview: Various species of the protozoan family Trypanosomatidae are responsible for a range of serious human diseases in tropical and subtropical areas of the world. […] Many of the disorders caused by trypanosomatids are fatal if left untreated, but most currently used drugs are inefficient and toxic. […] Oxidative metabolism involving the mitochondrial tricarboxylic acid cycle and oxidative phosphorylation are repressed in these parasites, and recent RNA interference (RNAi) experiments have shown that even partial depletion of certain individual glycolytic enzymes can lead to the death of cultured parasites. One such glycolytic enzyme, phosphofructokinase (PFK), catalyzes the formation of fructose-1,6-bisphosphate (F1,6BP) and ADP from fructose-6-phosphate (F6P) and ATP, and in many metabolic circumstances makes an important contribution to the control of flux through the glycolytic pathway. As a specific glycolytic target, PFK is particularly attractive as it catalyzes the first irreversible step in glycolysis, and structural and kinetic studies have shown very substantial and essential differences from corresponding host enzymes, allowing for the discovery of parasite-selective inhibitors. The goal of this screen is to find small-molecule inhibitors of T. brucei PFK using a biochemical assay that measures PFK activity as a function of ADP production. A luminescence-based assay for T. brucei PFK activity has been developed which uses luciferase to detect production of ADP. Traditional luciferase-based nucleotide detection reagents rely on ATP production as a direct substrate for the luciferase reaction; however, PFK catalyzes the transfer of a phosphate from ATP to F6P, resulting in the net depletion of ATP. To directly measure the ADP product of the PFK reaction, we used the ADP-Glo detection kit (Promega), which utilizes two separate reactions to 1) deplete all remaining uncatalyzed ATP and 2) convert all remaining ADP to ATP, which is then detected through a traditional luciferase-coupled reaction. Compounds were screened as a concentration-titration series that ranged from 57 uM to 0.7 nM.
NCGC Assay Protocol Summary: NCGC Assay Protocol Summary: Substrate buffer was dispensed into white, solid 1536-well plates at 3uL/well in 0.1M triethanolamine (TEA) buffer, pH 8.0, containing final concentrations of 5 mM MgCl2, 0.01% Tween20, 0.5 mM fructose-6-phosphate (F6P) and 0.1mM ATP. Then, 23 nL of compounds or DMSO were delivered to each well using a pin tool. One uL T. brucei PFK (0.1M TEA, 0.01% Tween20, 0.1% bovine serum albumin (BSA) and 1.25nM PFK, final concentrations) was then dispensed, and plates were incubated at room temperature for 45 min. The luminescent detection reagent, ADP-Glo (Promega), was then added in two steps: the first reagent, ADP-Glo (which converts remaining uncatalyzed ATP), was added at 2.5uL/well and incubated for ten minutes at room temperature, and the second component, Kinase Detection reagent (which converts ADP to ATP as a substrate for luciferase-based luminescence), was added immediately after at 5uL/well, followed by one final ten minute room temperature incubation. The plates were measured on a ViewLux plate reader for luminescent signal using a clear filter with a one second exposure. The %Activity was determined from the corrected luminescence values. As no specific T. brucei PFK inhibitors have been identified in the literature, 1x (1.25nM) and 0x PFK enzyme controls (untreated) were included to normalize %Activity of identified inhibitors; 0x enzyme values corresponded to 100%Activity (full inhibition), while 1x PFK enzyme values were used to normalize 0%Activity (no inhibition). Concentration-response curves were fitted to the signals arising from the resulting luminescence. […]

SMILES | activity, negative = inhibition
COc1cc(OC)cc(C(=O)NCC2(N3CCCCC3)CCCCC2)c1 | inactive: -0.0501%
Cc1ccc(C(=O)NCC2(N3CCCCC3)CCCCC2)o1 | inactive: -2.11%
Fc1ccccc1NC1CCN(Cc2ccccc2)CC1 | inactive: -3.1%
CCN1CCC(Nc2cccc(F)c2)CC1 | inactive: -6.59%
O=C(NCC1(N2CCCCC2)CCCCC1)c1ccco1 | inactive: -2.69%
CN(C)c1ccc(C(=O)NCC2(N3CCCCC3)CCCCC2)cc1 | inactive: -0.971%
CCOc1ncccc1C(=O)NCC1(N2CCOCC2)CCCCC1 | inactive: 1.48%
CN1CCC(Nc2ccc(F)c(Cl)c2)CC1 | inactive: -22.6%
CC(C)(C)OC(=O)N1CCC(Nc2ccccc2)CC1 | inactive: -0.987%
O=C(O)C1(Nc2ccccc2)CCN(Cc2ccccc2)CC1 | inactive: -2.1%
CCCOc1ccc(C(=O)NCC2(N(C)C)CCCCC2)cc1 | inactive: -6.98%
COc1cccc(C(=O)N(c2cc(C)cc(C)c2)C2CCN(C(=O)OC(C)(C)C)CC2)c1 | inactive: -5.73%
COc1cc(OC)cc(C(=O)NCC2(N3CCOCC3)CCCCC2)c1 | inactive: -2.4%
CCC(CO)(C(=O)OC1CN2CCC1CC2)c1ccccc1 (stereo not drawn) | inactive: 3.01%
CN1CCC(Nc2ccc(Cl)cc2)CC1 | inactive: 2.27%
CCCOc1ccc(C)cc1CN(CCCl)CCCl | inactive: 7.55%
COc1cc(C(=O)NCC2(N3CCOCC3)CCCCC2)cc(OC)c1C | inactive: -6.58%
O=C(NCC1(N2CCOCC2)CCCCC1)c1cc(Br)ccc1Cl | inactive: -6.24%
COc1ccc(C(=O)NCC2(N3CCOCC3)CCCCC2)cc1OC | inactive: -8.39%
CCOC(=O)N1CCC(Nc2ccc(C)cc2)CC1 | inactive: 3.58%
N/C(=N\O)c1c(N)no[n+]1[O-] | inactive: -0.711%
O=C(OC1CN2CCC1CC2)C1c2ccccc2C=Cc2ccccc21 (stereo not drawn) | inactive: 0.708%
CCc1cc(C(=O)NCC2(N3CCCCC3)CCCCC2)sc1C | inactive: -0.562%
O=C(O)c1cccc(Nc2c([N+](=O)[O-])cc([N+](=O)[O-])cc2[N+](=O)[O-])c1 | inactive: -13.2%
N#Cc1ccc(C(=O)NCC2(N3CCCCC3)CCCCC2)cc1 | inactive: 2.31%

SMILES | activity, negative = inhibition
CC(C)(C)OC(=O)N1CCC(N(C(=O)c2ccccc2)c2ccc(Cl)cc2)CC1 | inactive: -1.18%
CCOC(=O)C(CC)C1=NC(C)(C)Cc2ccccc21.O=[N+]([O-])c1cc([N+](=O)[O-])c(O)c([N+](=O)[O-])c1 (stereo not drawn) | inactive: 0.455%
CN(C)C1(CNC(=O)c2cccc(C#N)c2)CCCCC1 | inactive: 1.22%
c1ccc(CN2CCC(Nc3ccccc3)CC2)cc1 | inactive: -2.13%
CCCN1CCC(Nc2cc(OC)cc(OC)c2)CC1 | inactive: -9.55%
O=C(NCC1(N2CCCCC2)CCCCC1)c1ccc(OC(F)F)cc1 | inactive: 0.444%
CCN1CCC(Nc2ccc(Cl)cc2)CC1 | inactive: -2.98%
N#CC1(Nc2ccccc2)CCN(CCc2ccccc2)CC1 | inactive: 5.97%
O=C(NCC1(N2CCCCC2)CCCCC1)c1cccc([N+](=O)[O-])c1 | inactive: 3.69%
CSc1ccc(C(=O)NCC2(N3CCOCC3)CCCCC2)cc1 | inactive: -0.64%
O=[N+]([O-])c1cc([N+](=O)[O-])c(NCC2CCS(=O)(=O)C2)c([N+](=O)[O-])c1 (stereo not drawn) | inactive: 12.8%
O=C(NCC1(N2CCCCC2)CCCCC1)c1cccc(C(F)(F)F)c1 | inactive: 3.28%
O=C(NCC1(N2CCOCC2)CCCCC1)c1cc(=O)[nH]c2ccccc12 | inactive: -1.47%
COc1cc(C(=O)NCC2(N3CCCCC3)CCCCC2)ccc1OC(F)F | inactive: 2.61%
CC(C)c1ccc(C(=O)NCC2(N3CCOCC3)CCCCC2)cc1 | inactive: 24.7%
COc1ccc(NC2CCN(C(=O)OC(C)(C)C)CC2)cc1 | inactive: -1.73%
CC(C)c1ccc(NC2CCN(C(=O)OC(C)(C)C)CC2)cc1 | inactive: -1.91%
COc1ccc(CN(CCCl)CCCl)cc1Cl | inactive: -0.855%
CN(C)c1cccc(C(=O)NCC2(N3CCCCC3)CCCCC2)c1 | inactive: -3.34%
O=[N+]([O-])c1cc([N+](=O)[O-])c(OC2CCCCC2O)c([N+](=O)[O-])c1 (stereo not drawn) | inactive: 3.22%
COc1cc(OC)c(C(=O)NCC2(N(C)C)CCCCC2)cc1OC | inactive: -12.4%
O=C(NCC1(N2CCOCC2)CCCCC1)c1cc(F)c(F)cc1Cl | inactive: -7.59%
O=C(OC1CN2CCC1CC2)c1ccc([N+](=O)[O-])cc1 (stereo not drawn) | inactive: 2.31%
COc1ccc2c(c1O)-c1c(O)c(OC)cc3c1[C@H](C2)[N+](C)(C)CC3.O=[N+]([O-])c1cc([N+](=O)[O-])c([O-])c([N+](=O)[O-])c1[O-] | inactive: 25.5%
O=C(NCC1(N2CCCCC2)CCCCC1)c1cncc(Br)c1 | inactive: -0.586%

SMILES | activity, negative = inhibition
CCCOc1ccc(C(=O)NCC2(N(C)C)CCCCC2)cc1OC | inactive: 0.0361%
COc1ccc(C(=O)NCC2(N3CCCCC3)CCCCC2)cc1 | inactive: 3.43%
CC(C)(C)OC(=O)N1CCC(N(C(=O)c2ccccc2)c2ccc(F)cc2)CC1 | inactive: 3.1%
COc1ccc(C(=O)NCC2(N3CCCCC3)CCCCC2)c(OC)c1OC | inactive: -3.18%
O=C(NCC1(N2CCCCC2)CCCCC1)c1ccc(=O)[nH]c1 | inactive: 4.86%
O=C(NCC1(N2CCCCC2)CCCCC1)c1cccs1 | inactive: -1.58%
CSc1ccccc1C(=O)NCC1(N2CCCCC2)CCCCC1 | inactive: -0.399%
O=C(NCC1(N2CCCCC2)CCCCC1)c1ccc(Cl)nc1 | inactive: -0.39%
Cc1cc(C)cc(N(C(=O)c2ccccc2)C2CCN(C(=O)OC(C)(C)C)CC2)c1 | inactive: 3.21%
O=C(NCC1(N2CCOCC2)CCCCC1)c1cc2ccccc2o1 | inactive: 0.348%
O=C(OC1CN2CCC1CC2)C1c2ccccc2Oc2ccccc21 (stereo not drawn) | inactive: 0.305%
O=C(NCC1(N2CCCCC2)CCCCC1)c1ccc(Cl)s1 | inactive: -5.36%
N#CC1(Nc2ccccc2)CCN(Cc2ccccc2)CC1 | inactive: -4.34%
COc1ccc(Cl)cc1C(=O)NCC1(N2CCOCC2)CCCCC1 | inactive: 9.43%
CCOC(=O)N1CCC(Nc2ccc(OC)cc2)CC1 | inactive: -0.526%
CCOc1ccc(C)cc1CN(CCCl)CCCl | inactive: 1.11%
O=C(NCC1(N2CCCCC2)CCCCC1)c1ccc(F)cc1 | inactive: -2.15%
CCCCOc1ccc(C(=O)NCC2(N3CCOCC3)CCCCC2)cc1 | inactive: -2.63%
CCOC(=O)N1CCC(Nc2ccc(F)cc2)CC1 | inactive: 1.92%
COc1ccc(NC2CCN(CCc3ccccc3)CC2)c(OC)c1 | inactive: -3.79%
COc1cc(C(=O)NCC2(N(C)C)CCCCC2)ccc1OC(F)F | inactive: -0.356%
CCOC(=O)N1CCC(Nc2cccc(C)c2)CC1 | inactive: -3.01%
Cc1ccc(OCC(C)C)c(CN(CCCl)CCCl)c1 | inactive: 14.2%
